Reference: article PMC12777753 (Emerging Microbes & Infections, 2025)

The chains behind the UniProt entries cited, without tags or fusion partners. Residues count along the entry.
UniProt Q9Q0U7, whole entry, looked up: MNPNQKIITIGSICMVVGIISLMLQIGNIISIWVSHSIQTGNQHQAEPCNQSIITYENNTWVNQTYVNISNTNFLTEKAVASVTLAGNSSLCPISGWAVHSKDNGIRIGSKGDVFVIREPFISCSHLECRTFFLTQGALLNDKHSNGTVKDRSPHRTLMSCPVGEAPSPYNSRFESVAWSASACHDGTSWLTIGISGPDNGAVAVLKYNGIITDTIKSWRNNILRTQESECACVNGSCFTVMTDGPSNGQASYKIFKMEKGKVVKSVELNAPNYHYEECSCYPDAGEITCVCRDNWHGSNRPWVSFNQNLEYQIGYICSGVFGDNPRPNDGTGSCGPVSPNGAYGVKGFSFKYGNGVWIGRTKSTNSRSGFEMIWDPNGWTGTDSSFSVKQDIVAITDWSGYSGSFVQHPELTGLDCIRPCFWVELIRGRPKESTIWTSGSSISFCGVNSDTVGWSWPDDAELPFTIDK
UniProt Q8QPK2, 82-469 limits assumed: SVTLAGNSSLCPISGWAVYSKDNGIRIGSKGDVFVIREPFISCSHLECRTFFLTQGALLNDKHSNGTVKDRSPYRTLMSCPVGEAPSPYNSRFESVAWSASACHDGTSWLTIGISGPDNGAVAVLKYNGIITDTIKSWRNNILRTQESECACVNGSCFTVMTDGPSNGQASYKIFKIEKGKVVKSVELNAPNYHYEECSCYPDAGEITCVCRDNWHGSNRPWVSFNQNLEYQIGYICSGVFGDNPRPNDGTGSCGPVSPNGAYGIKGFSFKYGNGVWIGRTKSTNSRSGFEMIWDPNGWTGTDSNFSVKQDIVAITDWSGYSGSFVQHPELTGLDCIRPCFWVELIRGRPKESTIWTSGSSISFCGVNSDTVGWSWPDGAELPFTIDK

How the values were obtained:
[1] = molecular target: NA of A/California/173/2024 (Influenza A virus, UniProt Q9Q0U7); format: biochemical, influenza A(H5N1) virus; conditions: read-out: NA inhibitor IC50 ± SD
[2] = molecular target: recNA A/Washington/239/2024 (genotype D1.1) WT (Influenza A virus, UniProt Q8QPK2); format: biochemical, influenza A(H5N1) virus
[3] = molecular target: NA of A/Iowa/24/2024 (Influenza A virus, UniProt Q9Q0U7); format: biochemical, influenza A(H5N1) virus; conditions: read-out: NA inhibitor IC50 ± SD
[4] = molecular target: NA of A/California/151/2024 (Influenza A virus, UniProt Q9Q0U7); format: biochemical, influenza A(H5N1) virus; conditions: read-out: NA inhibitor IC50 ± SD
[5] = molecular target: NA of A/California/148/2024 (Influenza A virus, UniProt Q9Q0U7); format: biochemical, influenza A(H5N1) virus; conditions: read-out: NA inhibitor IC50 ± SD
[6] = molecular target: NA of A/California/152/2024 (Influenza A virus, UniProt Q9Q0U7); format: biochemical, influenza A(H5N1) virus; conditions: read-out: NA inhibitor IC50 ± SD
[7] = molecular target: NA of A/California/153/2024 (Influenza A virus, UniProt Q9Q0U7); format: biochemical, influenza A(H5N1) virus; conditions: read-out: NA inhibitor IC50 ± SD
[8] = molecular target: NA of Genotype D1.1 viruses (n = 7) (Influenza A virus, UniProt Q9Q0U7); conditions: read-out: NA inhibitor IC50, median
[9] = molecular target: NA of A/California/155/2024 (Influenza A virus, UniProt Q9Q0U7); format: biochemical, influenza A(H5N1) virus; conditions: read-out: NA inhibitor IC50 ± SD
[10] = molecular target: NA of A/bald eagle/FL/2022 (H5N1) (Influenza A virus, UniProt Q9Q0U7); format: biochemical; conditions: read-out: NA inhibitor IC50 ± SD
[11] = molecular target: recNA A/California/148/2024 (genotype B3.13) WT (Influenza A virus, UniProt Q9Q0U7); format: biochemical, influenza A(H5N1) virus
[12] = molecular target: NA of A/Wyoming/01/2025 (Influenza A virus, UniProt Q9Q0U7); format: biochemical, influenza A(H5N1) virus; conditions: read-out: NA inhibitor IC50 ± SD
[13] = molecular target: NA of Genotype B3.13 viruses (n = 10) (Influenza A virus, UniProt Q9Q0U7); conditions: read-out: NA inhibitor IC50, median
[14] = molecular target: NA of A/Nevada/10/2025 (Influenza A virus, UniProt Q9Q0U7); format: biochemical, influenza A(H5N1) virus; conditions: read-out: NA inhibitor IC50 ± SD
[15] = molecular target: NA of A/California/147/2024 (Influenza A virus, UniProt Q9Q0U7); format: biochemical, influenza A(H5N1) virus; conditions: read-out: NA inhibitor IC50 ± SD

Work on oseltamivir carboxylate yielded an IC50 [1] of 3.26 nM, an IC50 [2] of 3.52 nM and an IC50 [3] of 2.45 nM. For the same substance, the IC50 [4] was 3.54 nM, the IC50 [5] was 3.31 nM and the IC50 [6] was 3.45 nM. The IC50 [7] was 3.56 nM, the IC50 [8] was 2.87 nM and the IC50 [9] was 2.71 nM. For the same substance, the IC50 [10] was 3.09 ± 0.62 nM, the IC50 [11] was 3.99 nM and the IC50 [12] was 2.94 nM. It also gave an IC50 [13] of 3.5 nM, an IC50 [14] of 2.45 nM and an IC50 [15] of 3.62 nM.
